Data: BindingDB's records for 21962108

Chains of the proteins cited; added tags and fusions are not shown.
UniProt P08104, whole entry, looked up: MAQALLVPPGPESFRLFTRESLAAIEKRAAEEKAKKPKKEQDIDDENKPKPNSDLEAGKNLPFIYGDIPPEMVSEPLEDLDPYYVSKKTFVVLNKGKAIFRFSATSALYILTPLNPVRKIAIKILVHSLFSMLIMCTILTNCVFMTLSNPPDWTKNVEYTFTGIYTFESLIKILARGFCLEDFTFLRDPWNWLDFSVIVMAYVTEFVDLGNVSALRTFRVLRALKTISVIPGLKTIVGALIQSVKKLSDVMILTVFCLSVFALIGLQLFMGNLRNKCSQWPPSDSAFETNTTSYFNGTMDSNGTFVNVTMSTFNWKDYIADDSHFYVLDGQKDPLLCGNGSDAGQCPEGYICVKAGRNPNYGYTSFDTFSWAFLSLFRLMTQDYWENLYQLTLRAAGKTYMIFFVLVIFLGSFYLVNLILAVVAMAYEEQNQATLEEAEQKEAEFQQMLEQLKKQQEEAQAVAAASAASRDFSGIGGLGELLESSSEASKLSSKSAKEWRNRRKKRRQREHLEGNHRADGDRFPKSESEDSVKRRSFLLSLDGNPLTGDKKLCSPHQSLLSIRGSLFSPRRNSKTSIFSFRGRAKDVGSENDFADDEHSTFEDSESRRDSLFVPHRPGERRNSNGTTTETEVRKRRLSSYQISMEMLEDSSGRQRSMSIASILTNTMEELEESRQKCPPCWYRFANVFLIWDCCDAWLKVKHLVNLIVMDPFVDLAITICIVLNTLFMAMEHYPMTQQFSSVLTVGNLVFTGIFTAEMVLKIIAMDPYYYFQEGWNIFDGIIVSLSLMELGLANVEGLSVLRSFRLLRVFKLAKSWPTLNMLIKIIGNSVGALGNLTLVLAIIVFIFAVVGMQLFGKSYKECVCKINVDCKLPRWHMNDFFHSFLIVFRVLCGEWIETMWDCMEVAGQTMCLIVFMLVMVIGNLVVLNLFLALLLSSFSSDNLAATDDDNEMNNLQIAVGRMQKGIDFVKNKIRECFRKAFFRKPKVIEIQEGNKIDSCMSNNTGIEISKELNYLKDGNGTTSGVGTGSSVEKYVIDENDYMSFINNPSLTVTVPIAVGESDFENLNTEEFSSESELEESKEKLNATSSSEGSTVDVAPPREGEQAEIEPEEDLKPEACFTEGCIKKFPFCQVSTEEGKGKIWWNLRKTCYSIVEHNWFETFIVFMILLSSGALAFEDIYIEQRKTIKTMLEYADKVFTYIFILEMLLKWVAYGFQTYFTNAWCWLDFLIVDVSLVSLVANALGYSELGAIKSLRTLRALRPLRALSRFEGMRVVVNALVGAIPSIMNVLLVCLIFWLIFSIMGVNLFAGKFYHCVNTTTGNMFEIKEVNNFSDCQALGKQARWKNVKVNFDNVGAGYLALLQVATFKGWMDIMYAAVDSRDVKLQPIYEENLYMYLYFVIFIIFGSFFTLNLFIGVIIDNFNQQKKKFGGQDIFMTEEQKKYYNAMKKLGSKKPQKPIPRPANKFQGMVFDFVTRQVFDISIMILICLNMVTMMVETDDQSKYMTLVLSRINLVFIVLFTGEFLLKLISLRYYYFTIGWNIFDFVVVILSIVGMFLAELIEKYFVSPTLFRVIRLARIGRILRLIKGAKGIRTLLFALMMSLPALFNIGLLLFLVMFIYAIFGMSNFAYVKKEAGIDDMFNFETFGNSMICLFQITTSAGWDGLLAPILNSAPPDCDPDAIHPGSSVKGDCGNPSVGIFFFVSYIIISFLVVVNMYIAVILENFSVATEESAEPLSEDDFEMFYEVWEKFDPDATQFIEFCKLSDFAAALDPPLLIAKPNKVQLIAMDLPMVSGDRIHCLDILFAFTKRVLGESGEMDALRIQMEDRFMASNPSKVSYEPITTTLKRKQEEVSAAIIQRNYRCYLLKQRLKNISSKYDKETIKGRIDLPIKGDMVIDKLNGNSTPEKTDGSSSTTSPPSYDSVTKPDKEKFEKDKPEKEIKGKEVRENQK
UniProt O08562, whole entry, looked up: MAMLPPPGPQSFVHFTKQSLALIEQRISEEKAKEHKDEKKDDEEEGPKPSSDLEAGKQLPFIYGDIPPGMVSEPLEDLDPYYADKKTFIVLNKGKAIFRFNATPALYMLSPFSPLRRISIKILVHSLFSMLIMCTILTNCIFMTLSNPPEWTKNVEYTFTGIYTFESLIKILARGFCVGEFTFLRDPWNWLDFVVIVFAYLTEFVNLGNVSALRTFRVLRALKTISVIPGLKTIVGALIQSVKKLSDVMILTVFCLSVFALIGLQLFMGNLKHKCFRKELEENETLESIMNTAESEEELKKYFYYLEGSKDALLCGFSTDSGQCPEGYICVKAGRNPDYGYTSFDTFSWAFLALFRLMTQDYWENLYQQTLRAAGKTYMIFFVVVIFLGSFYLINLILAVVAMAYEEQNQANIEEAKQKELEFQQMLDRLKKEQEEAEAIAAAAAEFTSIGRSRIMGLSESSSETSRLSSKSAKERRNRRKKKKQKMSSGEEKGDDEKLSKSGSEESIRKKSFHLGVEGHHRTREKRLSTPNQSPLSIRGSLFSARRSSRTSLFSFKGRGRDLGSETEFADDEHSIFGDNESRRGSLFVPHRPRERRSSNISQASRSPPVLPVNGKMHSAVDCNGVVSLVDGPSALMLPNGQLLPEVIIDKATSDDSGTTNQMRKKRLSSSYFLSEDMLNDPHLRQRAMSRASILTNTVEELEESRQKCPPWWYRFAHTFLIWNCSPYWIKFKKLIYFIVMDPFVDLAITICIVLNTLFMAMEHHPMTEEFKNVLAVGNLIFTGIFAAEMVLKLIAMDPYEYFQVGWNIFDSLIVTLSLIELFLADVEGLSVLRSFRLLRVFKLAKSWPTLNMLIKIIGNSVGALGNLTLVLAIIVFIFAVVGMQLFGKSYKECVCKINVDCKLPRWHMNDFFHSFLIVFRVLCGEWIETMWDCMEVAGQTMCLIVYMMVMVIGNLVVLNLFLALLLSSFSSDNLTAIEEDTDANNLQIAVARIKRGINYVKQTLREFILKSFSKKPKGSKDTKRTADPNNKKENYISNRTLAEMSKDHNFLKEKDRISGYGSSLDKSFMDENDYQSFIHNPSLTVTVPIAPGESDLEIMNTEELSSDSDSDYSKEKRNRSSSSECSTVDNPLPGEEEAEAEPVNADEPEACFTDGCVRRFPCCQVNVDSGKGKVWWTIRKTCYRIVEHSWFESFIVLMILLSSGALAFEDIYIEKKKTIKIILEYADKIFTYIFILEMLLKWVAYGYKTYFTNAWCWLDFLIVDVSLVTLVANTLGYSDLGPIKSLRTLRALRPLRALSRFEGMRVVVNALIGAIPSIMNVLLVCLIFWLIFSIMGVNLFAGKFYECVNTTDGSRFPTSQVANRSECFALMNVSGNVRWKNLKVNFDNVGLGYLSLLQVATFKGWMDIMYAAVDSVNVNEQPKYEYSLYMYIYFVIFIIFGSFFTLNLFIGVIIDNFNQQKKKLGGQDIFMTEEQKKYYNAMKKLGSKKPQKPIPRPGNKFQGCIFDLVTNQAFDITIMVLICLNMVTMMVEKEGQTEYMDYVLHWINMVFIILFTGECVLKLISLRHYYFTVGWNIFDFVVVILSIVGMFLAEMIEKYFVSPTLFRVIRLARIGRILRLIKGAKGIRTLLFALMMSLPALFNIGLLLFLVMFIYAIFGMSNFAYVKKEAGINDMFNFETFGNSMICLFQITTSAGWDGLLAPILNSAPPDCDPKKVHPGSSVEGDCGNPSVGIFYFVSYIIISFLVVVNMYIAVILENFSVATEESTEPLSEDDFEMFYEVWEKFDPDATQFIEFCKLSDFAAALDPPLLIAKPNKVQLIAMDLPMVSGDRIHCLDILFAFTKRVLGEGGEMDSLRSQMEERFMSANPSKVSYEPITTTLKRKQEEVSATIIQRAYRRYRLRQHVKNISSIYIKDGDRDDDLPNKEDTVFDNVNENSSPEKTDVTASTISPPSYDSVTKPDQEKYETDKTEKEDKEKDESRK
UniProt P15390, whole entry, looked up: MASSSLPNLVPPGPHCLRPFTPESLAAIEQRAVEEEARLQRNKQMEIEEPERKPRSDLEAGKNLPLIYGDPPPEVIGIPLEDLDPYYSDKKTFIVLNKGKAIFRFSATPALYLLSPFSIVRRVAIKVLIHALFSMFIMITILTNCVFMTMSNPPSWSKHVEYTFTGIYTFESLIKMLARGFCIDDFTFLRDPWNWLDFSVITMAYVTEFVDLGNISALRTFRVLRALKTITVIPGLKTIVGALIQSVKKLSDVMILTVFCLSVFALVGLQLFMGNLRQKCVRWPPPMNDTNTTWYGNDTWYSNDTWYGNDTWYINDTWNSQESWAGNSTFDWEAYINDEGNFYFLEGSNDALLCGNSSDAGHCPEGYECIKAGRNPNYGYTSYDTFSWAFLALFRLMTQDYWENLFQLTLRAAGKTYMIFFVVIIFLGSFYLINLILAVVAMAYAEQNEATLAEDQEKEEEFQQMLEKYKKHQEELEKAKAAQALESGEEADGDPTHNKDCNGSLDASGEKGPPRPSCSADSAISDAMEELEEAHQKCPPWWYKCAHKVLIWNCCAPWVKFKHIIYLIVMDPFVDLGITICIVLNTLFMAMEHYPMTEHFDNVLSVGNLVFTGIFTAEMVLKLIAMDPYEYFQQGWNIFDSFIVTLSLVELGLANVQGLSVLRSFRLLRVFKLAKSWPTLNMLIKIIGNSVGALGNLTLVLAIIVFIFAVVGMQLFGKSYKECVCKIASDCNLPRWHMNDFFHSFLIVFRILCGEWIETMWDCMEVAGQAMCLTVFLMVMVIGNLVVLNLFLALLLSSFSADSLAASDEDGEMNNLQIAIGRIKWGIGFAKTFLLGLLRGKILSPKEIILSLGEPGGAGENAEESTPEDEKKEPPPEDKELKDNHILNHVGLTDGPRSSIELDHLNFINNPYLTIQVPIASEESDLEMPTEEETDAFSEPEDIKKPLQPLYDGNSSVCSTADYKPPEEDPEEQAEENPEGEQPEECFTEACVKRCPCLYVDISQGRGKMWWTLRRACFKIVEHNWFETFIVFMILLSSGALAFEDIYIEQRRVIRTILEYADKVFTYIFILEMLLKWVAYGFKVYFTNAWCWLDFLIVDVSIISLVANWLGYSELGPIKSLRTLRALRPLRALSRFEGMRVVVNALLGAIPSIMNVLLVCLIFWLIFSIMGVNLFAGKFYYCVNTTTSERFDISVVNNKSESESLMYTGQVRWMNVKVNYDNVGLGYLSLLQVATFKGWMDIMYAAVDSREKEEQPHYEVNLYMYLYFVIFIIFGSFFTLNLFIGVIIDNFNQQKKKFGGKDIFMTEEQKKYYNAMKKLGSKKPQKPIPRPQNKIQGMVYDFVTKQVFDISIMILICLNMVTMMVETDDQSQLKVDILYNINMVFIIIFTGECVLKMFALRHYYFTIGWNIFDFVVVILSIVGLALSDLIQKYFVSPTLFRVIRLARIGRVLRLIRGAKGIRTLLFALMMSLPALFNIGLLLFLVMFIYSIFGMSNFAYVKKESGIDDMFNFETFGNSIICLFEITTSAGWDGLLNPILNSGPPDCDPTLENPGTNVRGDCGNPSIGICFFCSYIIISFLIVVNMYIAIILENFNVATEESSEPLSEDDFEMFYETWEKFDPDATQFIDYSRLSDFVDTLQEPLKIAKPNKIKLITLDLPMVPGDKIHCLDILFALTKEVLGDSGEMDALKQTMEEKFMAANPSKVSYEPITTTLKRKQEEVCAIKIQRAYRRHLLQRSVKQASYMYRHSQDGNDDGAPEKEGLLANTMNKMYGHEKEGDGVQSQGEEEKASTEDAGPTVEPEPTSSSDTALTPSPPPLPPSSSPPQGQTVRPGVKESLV

Tests used:
[1] = molecular target: Sodium channel protein type 3 subunit alpha (Rattus norvegicus, UniProt P08104)
[2] = molecular target: Sodium channel protein type 9 subunit alpha (Rattus norvegicus, UniProt O08562)
[3] = molecular target: Sodium channel protein type 4 subunit alpha (Rattus norvegicus, UniProt P15390)

SMILES | IC50 [1] | IC50 [2] | IC50 [3]
CC(=O)N[C@@H](CCCCN)C(=O)N[C@@H](Cc1c[nH]c2ccccc12)C(=O)N[C@H]1CC(=O)NCCCC[C@@H](C(=O)N[C@@H](CCCN=C(N)N)C(N)=O)NC(=O)[C@H](Cc2cnc[nH]2)NC(=O)[C@H](CC(=O)O)NC(=O)[C@H](CCCN=C(N)N)NC1=O | 150 µM | 177 µM | –
CC(=O)N[C@@H](CCCCN)C(=O)N[C@@H](Cc1c[nH]c2ccccc12)C(=O)N[C@H]1CCCCNC(=O)C[C@@H](C(=O)N[C@@H](CCCN=C(N)N)C(N)=O)NC(=O)[C@H](Cc2cnc[nH]2)NC(=O)[C@H](CC(=O)O)NC(=O)[C@H](CCCN=C(N)N)NC1=O | – | – | 204 µM
